{"source": "PubChem BioAssay AID624099 (ICCB-Longwood, 2012)", "assay": "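Host factors E2 relies on to silence an HPV18 LCR reporter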 (primary screen)", "cells": "human C33A cervical carcinoma cells (HPV-negative) stably expressing BPV1 E2 and an HPV18 LCR luciferase reporter", "knock-down reagent": "siRNA pool against human genes, 40 nM", "time to read-out": "72 h", "measurement": "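HPV18 LCR reporter light per well, converted to plate-wise z-scores that exclude control wells, and averaged over triplicate plates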", "direction": "mean z-score and z-score: higher = stronger reporter signal, weaker E2 silencing", "active means": "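Hit if mean z-score reaches 2 and two or more of three replicate z-scores also reach 2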", "note": "The deposit covers about 21,000 reagents; shown is a part drawn at random. 497 of all reagents (2.4%) were called active. 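Higher z means weaker E2 silencing; only reporter increases were scored, and knock-downs that hurt cell survival may mask genuine repressor factors.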"}
The first 2 records, ahead of the listing:
{"target gene": "TNNT3 (GeneID 7140)", "mean z-score": 0.32, "z-score, replicate A": 0.41, "z-score, replicate B": 0.39, "z-score, replicate C": 0.17, "outcome": "inactive"}
{"target gene": "PRR23C (GeneID 389152)", "mean z-score": 2.35, "z-score, replicate A": 2.17, "z-score, replicate B": 2.7, "z-score, replicate C": 2.17, "outcome": "active"}

Results, repeating the preview:
{"target gene": "TNNT3 (GeneID 7140)", "mean z-score": 0.32, "z-score, replicate A": 0.41, "z-score, replicate B": 0.39, "z-score, replicate C": 0.17, "outcome": "inactive"}
{"target gene": "PRR23C (GeneID 389152)", "mean z-score": 2.35, "z-score, replicate A": 2.17, "z-score, replicate B": 2.7, "z-score, replicate C": 2.17, "outcome": "active"}
{"target gene": "YAF2 (GeneID 10138)", "mean z-score": 0.19, "z-score, replicate A": -0.19, "z-score, replicate B": 0.18, "z-score, replicate C": 0.59, "outcome": "inactive"}
{"target gene": "ZNF543 (GeneID 125919)", "mean z-score": -1.02, "z-score, replicate A": -1.19, "z-score, replicate B": -1.11, "z-score, replicate C": -0.75, "outcome": "inactive"}
{"target gene": "LINC01996 (GeneID 400568)", "mean z-score": 0.18, "z-score, replicate A": 0.37, "z-score, replicate B": -0.17, "z-score, replicate C": 0.32, "outcome": "inactive"}
{"target gene": "MIDEAS (GeneID 91748)", "mean z-score": 0.74, "z-score, replicate A": 0.76, "z-score, replicate B": 0.82, "z-score, replicate C": 0.63, "outcome": "inactive"}
{"target gene": "RUNDC3B (GeneID 154661)", "mean z-score": 0.37, "z-score, replicate A": 0.06, "z-score, replicate B": 0.69, "z-score, replicate C": 0.35, "outcome": "inactive"}
{"target gene": "EIF4G2 (GeneID 1982)", "mean z-score": -1.7, "z-score, replicate A": -1.37, "z-score, replicate B": -1.76, "z-score, replicate C": -1.95, "outcome": "inactive"}
{"target gene": "SNX8 (GeneID 29886)", "mean z-score": -0.88, "z-score, replicate A": -0.72, "z-score, replicate B": -0.71, "z-score, replicate C": -1.22, "outcome": "inactive"}
{"target gene": "LOC147942 (retired record) (GeneID 147942)", "mean z-score": 0.15, "z-score, replicate A": 0.07, "z-score, replicate B": 0.35, "z-score, replicate C": 0.03, "outcome": "inactive"}
{"target gene": "SLC22A15 (GeneID 55356)", "mean z-score": 0.37, "z-score, replicate A": 0.79, "z-score, replicate B": 0.53, "z-score, replicate C": -0.2, "outcome": "inactive"}
{"target gene": "OR51B4 (GeneID 79339)", "mean z-score": -0.13, "z-score, replicate A": -0.22, "z-score, replicate B": -0.36, "z-score, replicate C": 0.19, "outcome": "inactive"}
